System: P. aeruginosa PA14 siderophore null strain (ΔpvdAΔpchE)
Test: Flow cell biofilm development, siderophore null strain, 1% TSB
Details: 10 μM PCA or PYO; for Total biomass: 22° C.
[1] = Day 2, additives to 1% TSB: 1.0 μM Fe(OH)3(s)
[2] = Day 4, additives to 1% TSB: 1.0 μM Fe(OH)3(s)
[3] = Day 6, additives to 1% TSB: 1.0 μM Fe(OH)3(s)

SMILES	Max. biofilm thickness (Day 2, 1.0 μM Fe(OH)3(s))	Substratum coverage [1]	Total biomass [1]	Max. biofilm thickness (Day 4, 1.0 μM Fe(OH)3(s))	Substratum coverage (Day 4, 1.0 μM Fe(OH)3(s))	Total biomass [2]	Max. biofilm thickness (Day 6, 1.0 μM Fe(OH)3(s))	Substratum coverage (Day 6, 1.0 μM Fe(OH)3(s))	Total biomass [3]
O=C(O)c1cccc2nc3ccccc3nc12 [PCA, Phenazine-1-carboxylic acid]	32 μm	0.6 ± 0.2%	0.05 ± 0.01 μm^2/μm^2	34 μm	2.9 ± 1.4%	0.19 ± 0.00 μm^2/μm^2	66 μm	3.3 ± 2.1%	0.21 ± 0.09 μm^2/μm^2
Cn1c2cccc(=O)c-2nc2ccccc21 [PYO, Pyocyanin]	34 μm	0.8 ± 0.3%	0.09 ± 0.03 μm^2/μm^2	42 μm	9.9 ± 2.4%	0.83 ± 0.22 μm^2/μm^2	94 μm	44.3 ± 5.1%	9.54 ± 0.18 μm^2/μm^2

From patent publication US11820973B2, “Methods and system for interfering with viability of bacteria and related compounds and compositions” (CALIFORNIA INSTITUTE OF TECHNOLOGY, priority 2011, dated 2023)
